Data reported in patent US20230233538A1, “COMPOSITION FOR TREATING CORONAVIRUS DISEASE-19, COMPRISING PHENANTHROINDOLIZIDINE AND PHENANTHROQUI[…] DERIVATIVES, OPTICAL ISOMER THEREOF, OR PHARMACEUTICALLY ACCEPTABLE SALTS THEREOF AS ACTIVE INGREDIENT” (priority 2020, published 2023).

Assay: in vitro
Settings: African green monkey, Cytotoxic Concentration 50 (CC50)

## COc1ccc2c3c(c4cc(OC)c(OC)cc4c2c1)C[C@H]1CCCCN1C3 [cryptopleurin]
  CC50: 62 nM
